# Data: article PMC6879241 (Antimicrobial Agents and Chemotherapy, 2019)
# Tested on: B. pseudomallei 1026b
Structure (SMILES),MIC for the parent strain [mg/L],"wild-type MICs, average fold higher than the MICs for GC-072 [fold]"
"CC(C)(O/N=C(\C(=O)N[C@@H]1C(=O)N2C(C(=O)[O-])=C(C[n+]3ccccc3)CS[C@H]12)c1csc(N)n1)C(=O)O [Ceftazidime, ceftazidime]",1 to 2,7.2
Cc1c(-c2cc(F)c(N)cc2F)ccn2c(=O)c(C(=O)O)cc(C3CC3)c12 [GC-072],0.125 to 0.25,–
